Laboratory results taken from US20100143886A1, “IN VIVO HCV RESISTANCE TO ANTI-VIRAL INHIBITORS” (priority 2007, published 2010).

Legend:
Format in all cases: in vivo
HCV genotype 3a = test: AUGER quantification of S282T virus, chimpanzee dosed with Compound A (Example 3); settings: 2 mg per kg IV for 7 days
HCV genotype 1a [1] = test: Population sequencing and molecular clone sequencing of NS3/4a cDNA (Example 2); settings: chimpanzee x120 re-dosed oral 10 mg per kg q.d. 7 days
HCV genotype 1a [2] = test: AUGER analysis: % R155K and % D168T virus, chimpanzee x120 re-dosed with Compound B (Example 2); settings: re-dosing oral 10 mg per kg q.d. for 7 days
[3] = 0 Days (8 hours after initial dose)

Compound: C[C@@]1(O)[C@H](O)[C@@H](CO)O[C@H]1n1ccc2c(N)ncnc21 [Compound A]
- virus resistant to the polymerase inhibitor (S282T) in early rebound populations (HCV genotype 3a; 7 and 10 days upon cessation of dosing (days 13 and 16 of the study)): emerged
- virus resistant to the polymerase inhibitor (S282T) in circulating population (HCV genotype 3a; 13 days post-dosing (day 19 of the study)): disappeared from the circulating population

Compound: CC[C@@H]1C[C@]1(NC(=O)[C@@H]1C[C@@H]2CN1C(=O)[C@H](C(C)(C)C)NC(=O)OCC(C)(C)CCCCc1cccc3c1CN(C3)C(=O)O2)C(=O)NS(=O)(=O)C1CC1 [Compound B]
- major genetic change by population sequencing (HCV genotype 1a [1]; day 2 and rebounding viral population): homogenous R155K change (AGG to AAG)
- population sequence at codon 155 (HCV genotype 1a [1]; day 5 sample): heterogenous R155K
- population sequence at codon 168 (HCV genotype 1a [1]; day 5 sample): heterogenous at both the first (G/A) and second positions (A/C) of codon 168
- genotypes encoded by 19 molecular clones (HCV genotype 1a [1]; day 5 sample, one clone wild-type at both positions): either R155K and wild-type at 168, or wild-type at 155 and D168T
- AUGER Analysis: Chimp x120 % D168T (HCV genotype 1a [2]; [3]): 0.8%
- AUGER Analysis: Chimp x120 % R155K (HCV genotype 1a [2]; [3]): 0.1%
- AUGER Analysis: Chimp x120 % D168T (HCV genotype 1a [2]; 2 Days): 0.6%
- AUGER Analysis: Chimp x120 % R155K (HCV genotype 1a [2]; 2 Days): 98%
- AUGER Analysis: Chimp x120 % D168T (HCV genotype 1a [2]; 5 Days): 53%
- AUGER Analysis: Chimp x120 % R155K (HCV genotype 1a [2]; 5 Days): 48%
- AUGER Analysis: Chimp x120 % D168T (HCV genotype 1a [2]; 7 Days): 0.4%
- AUGER Analysis: Chimp x120 % R155K (HCV genotype 1a [2]; 7 Days): 89%
- AUGER Analysis: Chimp x120 % D168T (HCV genotype 1a [2]; 10 Days): 0.3%
- AUGER Analysis: Chimp x120 % R155K (HCV genotype 1a [2]; 10 Days): 61%
- AUGER Analysis: Chimp x120 % D168T (HCV genotype 1a [2]; 14 Days (7 days post-dosing)): 0.4%
- AUGER Analysis: Chimp x120 % R155K (HCV genotype 1a [2]; 14 Days (7 days post-dosing)): 36%
- AUGER Analysis: Chimp x120 % D168T (HCV genotype 1a [2]; −1 Days (before re-dosing)): 0.9%
- AUGER Analysis: Chimp x120 % R155K (HCV genotype 1a [2]; −1 Days (before re-dosing)): 0.1%
- AUGER Analysis: Chimp x120 % D168T (HCV genotype 1a [2]; −7 Days (before re-dosing)): 1.4%
- AUGER Analysis: Chimp x120 % R155K (HCV genotype 1a [2]; −7 Days (before re-dosing)): 0.2%
